Assay results from patent publication US5552384A (priority 1990, dated 1996).

Test: peptide synthesis

| Substance | step yield (coupling step) | step yield (late stage modification step) |
| --- | --- | --- |
| Boc-Tbg-Asp(pyrrolidino)-Asp(cyPn)(OBzl)-Leu-OBzl | 85% |  |
| PhCH2 CH2 CO--N-Me-Val-Tbg-Asp(pyrrolidino)-Asp(cyPn)-Leu-OH |  | 83% |
| Boc-N-Me-Val-Tbg-Asp(pyrrolidino)-Asp(cyPn)(OBzl)-Leu-OBzl | 86% yield |  |
| PhCH2 CH2 CO--N-Me-Val-Tbg-Asp(pyrrolidino)-Asp(cyPn)(OBzl)-Leu-OBzl | 90% |  |
